From US20220023401A1 (priority 2020, published 2022)
Several values for one entry are separate records, joined by “and”; a condition that tells them apart may be missing. Equal entries are not always repeated. Where two headings read alike, the source gives them in different places.

Test system: Aβ1-42
Conditions: guinea pigs, 100 μg/0.5 mL in ISA 51 emulsion; for Aβ1-42 ELISA Log10 Titer, Geomean: group Geomean; for Aβ1-42 ELISA Log10 Titer: individual animals, listed as 57

Aβ1-14-ϵK-Cholera Toxin Th
Aβ1-42 ELISA Log10 Titer, Geomean (0 wpi): 0.773 Log10 | Aβ1-42 ELISA Log10 Titer (0 wpi): 0.836 Log10 and 1.111 Log10 and 0.497 Log10 | Aβ1-42 ELISA Log10 Titer, Geomean (4 wpi): 4.386 Log10 | Aβ1-42 ELISA Log10 Titer (4 wpi): 4.218 Log10 and 4.704 Log10 and 4.252 Log10 | Aβ1-42 ELISA Log10 Titer, Geomean (6 wpi): 4.921 Log10 | Aβ1-42 ELISA Log10 Titer (6 wpi): 4.735 Log10 and 5.357 Log10 and 4.698 Log10 | Aβ1-42 ELISA Log10 Titer, Geomean (8 wpi): 4.724 Log10 | Aβ1-42 ELISA Log10 Titer (8 wpi): 4.287 Log10 and 5.347 Log10 and 4.600 Log10
